# HIV-1 NL4-3 point mutations in Gag: replication capacity

Values reported by Al-Mawsawi et al. 2014 (doi:10.1186/s12977-014-0124-6).

Protein: Gag of HIV-1 NL4-3, numbered from its first residue. Gag is numbered as the whole polyprotein.
"Other frame" gives the effect on an overlapping gene as the source lists it; other overlaps (genes, RNA elements) are not shown.

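Random point mutant libraries of HIV-1 NL4-3, one for each of seven fragments, were passaged in CEM T lymphocytes. The RC index is the frequency of a change after passage round 2 divided by its frequency in the plasmid library.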

RC index: lower means poorer replication; rough cut-offs are 0.1 (lethal) and 0.2 (tolerated).
Each entry names the wild-type residue, its position and the residue put in its place.
Clones carried about five changes per kilobase, which can drag down the index of neutral changes.

With P328T (base C1771A, region CA) the assay gave 0.289.
With A100P (base G1087C, region MA) the assay gave 0.0502.
With I285V (base A1642G, region CA) the assay gave 0.101.
With Q69L (base A995T, region MA) the assay gave 0.0525.
With V84L (base G1039C, region MA) the assay gave 0.124.
With M346I (base G1827T, region CA) the assay gave 0.0557.
With Q116K (base C1135A, region MA) the assay gave 0.0414.
With N189D (base A1354G, region CA) the assay gave 0.0568.
With L201S (base T1391C, region CA) the assay gave 0.0914.
With M200I (base G1389A, region CA) the assay gave 0.179.
With Q28L (base A872T, region MA) the assay gave 0.0840.
With G443R (base G2116A, region p1 / p6*, other frame p6* G3E) the assay gave 0.0991.
With G10R (base G817A, region MA) the assay gave 0.0896.
With A364D (base C1880A, region p2) the assay gave 0.0475.
With I60L (base A967C, region MA) the assay gave 0.0980.
With E105K (base G1102A, region MA) the assay gave 0.363.
With A179T (base G1324A, region CA) the assay gave 0.107.
With P181T (base C1330A, region CA) the assay gave 0.184.
With Y296C (base A1676G, region CA) the assay gave 0.0851.
With S38R (base C903A, region MA) the assay gave 0.0520.
With I19F (base A844T, region MA) the assay gave 0.0498.
With I104T (base T1100C, region MA) the assay gave 0.0926.
With E107K (base G1108A, region MA) the assay gave 0.296.
With L321M (base T1750A, region CA) the assay gave 0.0469.
With E260V (base A1568T, region CA) the assay gave 0.0480.
With I266M (base A1587G, region CA) the assay gave 0.0394.
With L243P (base T1517C, region CA) the assay gave 0.170.
With P225S (base C1462T, region CA) the assay gave 0.0832.
With S126T (base G1166C, region MA) the assay gave 0.0261.
With E345V (base A1823T, region CA) the assay gave 0.0162.
With L75V (base C1012G, region MA) the assay gave 0.0601.
With P439H (base C2105A, region p1) the assay gave 0.0353.
With S234R (base T1491A, region CA) the assay gave 0.0277.
With M276I (base G1617T, region CA) the assay gave 0.237.
With T332I (base C1784T, region CA) the assay gave 0.104.
With M1T (base T791C, region MA) the assay gave 0.0489.
With A374T (base G1909A, region p2) the assay gave 0.131.
With F172I (base T1303A, region CA) the assay gave 0.0265.
With I104V (base A1099G, region MA) the assay gave 0.0196.
With G233R (base G1486A, region CA) the assay gave 0.354.
With A118G (base C1142G, region MA) the assay gave 0.0458.
With N125K (base C1164G, region MA) the assay gave 0.0568.
With N153K (base T1248G, region CA) the assay gave 0.0578.
With D93E (base T1068A, region MA) the assay gave 0.599.
With T427S (base C2069G, region NC p7) the assay gave 0.0358.
With W265L (base G1583T, region CA) the assay gave 0.148.
With Q287L (base A1649T, region CA) the assay gave 0.0183.
With Q141R (base A1211G, region CA) the assay gave 0.0839.
With A120S (base G1147T, region MA) the assay gave 0.394.
With L321V (base T1750G, region CA) the assay gave 0.0580.
With N124S (base A1160G, region MA) the assay gave 0.0764.
With V258E (base T1562A, region CA) the assay gave 0.0279.
With P23T (base C856A, region MA) the assay gave 0.0950.
With E208G (base A1412G, region CA) the assay gave 0.0893.
With I261F (base A1570T, region CA) the assay gave 0.0975.
With V191G (base T1361G, region CA) the assay gave 0.484.
With M367T (base T1889C, region p2) the assay gave 0.0446.
With S368G (base A1891G, region p2) the assay gave 0.0590.
With A120V (base C1148T, region MA) the assay gave 0.0500.
With K98E (base A1081G, region MA) the assay gave 0.0613.

The opening 7 entries, copied out:

P328T (base C1771A, region CA) read 0.289.
A100P (base G1087C, region MA) read 0.0502.
I285V (base A1642G, region CA) read 0.101.
Q69L (base A995T, region MA) read 0.0525.
V84L (base G1039C, region MA) read 0.124.
M346I (base G1827T, region CA) read 0.0557.
Q116K (base C1135A, region MA) read 0.0414.

The authors read an index above 1 as above wild type (1.9% of all changes in the genome).
Nucleotide positions follow pNL4-3.